These results are taken from paper PMC6868718, “Multiple transcription factors co-regulate the Mycobacterium tuberculosis adaptation response to vitamin C” (BMC Genomics, 2019).

Data set [1] addresses DevR~P (phosphorylated DevR) (UniProt P9WMF9). Description: EMSA. The settings on record: recombinant protein; protein details: His6 (N-terminal by name His6-DevR); label: none (ethidium bromide stain); probe letters rebuilt from the primers and the genome. A general note: Mobility shift assays separate free from complexed probe on a gel.
Data set [2] deals with Rv0348 (MosR) + DevR~P (phosphorylated DevR). Description: EMSA (supershift). The settings on record: recombinant protein; label: none (ethidium bromide stain); probe letters rebuilt from the primers and the genome.

For at least one entry, the source does not settle the construct or the ends of the probe. For some assays here: At least one verdict rests on a figure or table, not on a statement of the authors.

In the case of “TTACTGGCGGGGACCGCTATCTCCCAGGGGCGTTGGTCCCCACCTGAGGGCCGTTAGTCCTTATCGACCGATGACAGACGCAACCCGTCAGGGCGAGAATGAATCTCACCTATCGCACGGGTGGCTCGTCCAGGTCCACAACCATCGCCCAGCTTTTCACAGCAAAGTCCCAGAAATGGCTTACAGTTGCCGACAGCTGCCGAACCAGCGGCCGTC (double strand) [Rv3134c promoter fragment (devR operon promoter)]”, the binding result in data set [1] and in data set [2] was “binds” each time.
